Results of unrelated studies side by side (data: NIAID ChemDB).

Common to all: whole-cell or culture tests; species: Mycobacterium tuberculosis

Percent inhibition refers to the dose given; in toxicity tests it is the harm to the cells. MIC bound: limit read from a one-dose screen. An empty or dashed field is not shown. "inactive" is the filed call at that dose; no cut-off is given. a–b is a range or a potency band. MIC50, MIC90 and the like: level of inhibition, or share of isolates inhibited. Lines come from different laboratories, so protocols vary. ECn: concentration that inhibits the pathogen or its effect by n%.

SMILES | strain | changes | read by | measure | dose | value
CCCCCCCCCCCCOC(=O)C[n+]1ccc(C(N)=O)cc1 | H37Rv |  | resazurin | MIC bound |  | >6.25 µg/mL
C=C1C(=O)[C@]23[C@H](O)[C@H]1CC[C@H]2[C@@]1(C)[C@H](C[C@H]3OC(C)=O)C(C)(C)CC[C@H]1OC(C)=O | H37Ra |  | resazurin / absorbance | MIC |  | 1.56–3.125 µg/mL
CCOC(=O)c1cc(-c2ccc(C)cc2)n(CC(=O)NN)c1C | H37Rv |  | BACTEC | EC50 |  | >6.25 µg/mL
Cc1cccc(CNCCNCCCCc2ccccc2)c1 |  |  |  | MIC |  | 12.5 µM
CC1COc2c(N3CCN(C(N)=NC#N)CC3)c(F)cc3c(=O)c(C(=O)O)cn1c23 | ATCC 35827 |  | broth dilution | MIC |  | 0.625 µg/mL
CO[C@H]1/C=C/O[C@@]2(C)Oc3c(C)c(O)c4c(O)c(c5c(c4c3C2=O)NC2(CCN(CC(C)C)CC2)N=5)=NC(=O)/C(C)=C\C=C\[C@H](C)[C@H](O)[C@@H](C)[C@@H](O)[C@@H](C)[C@H](OC(C)=O)[C@@H]1C | H37Rv |  |  | Mean MIC |  | 0.04 µg/mL
Cc1ccc2oc3ccccc3c(=O)c2c1 | H37Rv |  |  | inhibition | 2 µg/mL | inactive
CCn1c(-c2cc3ccccc3oc2=O)cs/c1=N\N=C\c1cc(Br)ccc1O | H37Rv |  |  | inhibition | 12.5 µg/mL | 83%
CO[C@H]1/C=C/O[C@@]2(C)Oc3c(C)c(O)c4c(O)c(c(/C=N/N5CCN(C)CC5)c(O)c4c3C2=O)NC(=O)/C(C)=C\C=C\[C@H](C)[C@H](O)[C@@H](C)[C@@H](O)[C@@H](C)[C@H](OC(C)=O)[C@@H]1C | H37Rv |  | resazurin | MIC90 |  | 0.078 µg/mL
NNC(=O)c1ccncc1 | H37Rv |  | resazurin / absorbance | MIC |  | 0.0062–0.012 µg/mL
CCOC(=O)c1c(C)c(-c2ccccc2)n(CC(=O)N=Nc2c(O)[nH]c3ccccc23)c1C | H37Rv |  | BACTEC | inhibition | 6.25 µg/mL | 2%
COc1ccc(CNCCNCCc2ccccc2Cl)c(OC)c1 |  |  |  | MIC |  | 50 µM
C[C@H]1COc2c(N3CCN(C)CC3)c(F)cc3c(=O)c(C(=O)O)cn1c23 | 27 strains (levofloxacin-susceptible) |  |  | MIC90 |  | 0.78 µg/mL
CCOC(=O)C1(n2[nH]c(=O)n(-c3ccccc3)c2=O)CC(C)(C)OC1=O | H37Rv |  | BACTEC | inhibition | 12.5 µg/mL | 2%
O=c1oc2ccccc2cc1-c1cs/c(=N\N=C\c2ccccc2[N+](=O)[O-])n1C1CCCCC1 | H37Rv |  |  | MIC |  | >12.5 µg/mL
CC(C)(C)c1ccc(N2CC3CN(Cc4ccc([N+](=O)[O-])o4)CC3C2)cc1 | H37Rv |  | resazurin | MIC90 |  | 0.062 µg/mL
CCN(CC)CCCC(O)(c1cccc2ccccc12)C(c1ccccc1)c1cc2cc(Br)ccc2nc1OC | H37Rv |  |  | MIC90 |  | 47.47 µg/mL
C[n+]1c(-c2ccc(/C=N/NC(=O)N/N=C/c3ccc(-c4cn5ccccc5[n+]4C)cc3)cc2)cn2ccccc21.Cc1ccc(S(=O)(=O)[O-])cc1.Cc1ccc(S(=O)(=O)[O-])cc1 | H37Rv |  | BACTEC | MIC bound |  | ≤12.5 µg/mL
CCOC(=O)c1c(C)c(-c2ccccc2)n(CC(=O)N/N=C/c2ccc([N+](=O)[O-])o2)c1C | H37Rv |  | BACTEC | inhibition | 6.25 µg/mL | 31%
O=NN1CCN=C1c1ccc([N+](=O)[O-])cc1 | H37Rv |  | BACTEC | inhibition | 12.5 µg/mL | 4%
C=C1C(=O)[C@@]23CC[C@@H]4[C@@](C)(CO)CCC[C@@]4(C)[C@@H]2CC[C@@H]1C3 | H37Ra |  | resazurin / absorbance | MIC |  | 25–50 µg/mL
NNC(=O)c1ccncc1 | Strain 460 |  |  | MIC |  | 0.125 µg/mL
C=C1C(=O)[C@]23C[C@H]1CC[C@H]2[C@]1(C)CCC[C@](C)(COC(C)=O)[C@H]1C[C@H]3O | H37Ra |  | resazurin / absorbance | MIC |  | 3.125–6.25 µg/mL
NNC(=O)c1ccncc1 | H37Rv |  | resazurin | MIC90 |  | 0.078 µg/mL
O=S(=O)(c1ccccc1)c1cccc2c1NCCC2 | H37Rv |  | BACTEC | inhibition | 12.5 µg/mL | 40%
CN(C)CCC(O)(c1ccccc1)C(c1ccccc1)c1cnc2ccc(Br)cc2c1 | H37Rv |  |  | MIC90 |  | 47.54 µg/mL
CC[C@H]1OC(=O)[C@H](C)[C@@H](O[C@H]2C[C@@](C)(OC)[C@@H](O)[C@H](C)O2)[C@H](C)[C@@H](O[C@@H]2O[C@H](C)C[C@H](N(C)C)[C@H]2O)[C@](C)(OC)C[C@@H](C)C(=O)[C@H](C)[C@@H](O)[C@]1(C)O | 23 strains (rifampin- isoniazid-susceptible) |  |  | MIC90 |  | 50 µg/mL
COc1ccc(OC)c(CNCCNC2C3CC4CC(C3)CC2C4)c1 |  |  |  | MIC |  | 12.5 µM
O=C(O)c1ccc2oc3c(C(=O)O)cc([N+](=O)[O-])cc3c(=O)c2c1 | H37Rv |  |  | inhibition | 32 µg/mL | inactive
Cc1ncc(CO)c(CO)c1OCC(O)CN1CCN(c2ccc(F)cc2)CC1 | H37Rv |  | resazurin | inhibition | 6.25 µg/mL | 5%
C[C@H]1COc2c(N3CCN(C)CC3)c(F)cc3c(=O)c(C(=O)O)cn1c23 | 3183-5 |  |  | MIC |  | 0.25 µg/mL
CC1(C)S[C@@H]2[C@H](NC(=O)[C@H](N)c3ccccc3)C(=O)N2[C@H]1C(=O)O | 1578 |  |  | MIC |  | 46 µM
CSC(=S)N(C)c1nc(=[N+](C)C)ss1.O=S(=O)([O-])F | H37Rv |  | BACTEC | MIC |  | ≥128 µg/mL
Cc1c[nH]c(C)c1C(=O)N/N=C/c1c[nH]c2ccccc12 | H37Rv |  | BACTEC | EC50 |  | >6.25 µg/mL
Fc1cccc(CCNCCNCCCCc2ccccc2)c1 |  |  |  | MIC |  | 50 µM
N#Cc1ncc(C(Cl)(Cl)Cl)nc1Cl | PAS-R |  |  | MIC |  | 6.3 µg/mL
O=C(O)c1ccc2c(=O)c3ccccc3oc2c1C(=O)O | H37Rv |  |  | inhibition | 32 µg/mL | inactive
CCOC(=O)c1cc(-c2ccccc2)n(CC(=O)N/N=C/c2cn(C(C)=O)c3ccccc23)c1C | H37Rv |  | BACTEC | EC50 |  | >6.25 µg/mL
FC(F)(F)c1cc(NC(=S)SCc2ccc3c(c2)OCO3)ccc1Cl | H37Rv |  | BACTEC | inhibition | 12.5 µg/mL | 4%
COc1cc(C2=NN(C(=O)COc3ccc4ccccc4c3)[C@H](c3ccc(O)cc3)C2)c(C)cc1OCC(=O)O | Isoniazid-resistant |  |  | MIC |  | >6.25 µg/mL
N#Cc1cnn2ccn([C@@H]3O[C@H](CO)[C@@H](O)[C@H]3O)c12 | H37Rv |  | BACTEC | MIC bound |  | >12.5 µg/mL
C/C=C1/C(=O)O[C@]23C=C[C@@H]4C(C(=O)OC)=CO[C@H](O[C@@H]12)[C@@H]43 | MDR2 clinical isolate |  | MTT | MIC |  | 2 µg/mL
CN(C)c1nnc([N+](=O)[O-])s1 | H37Rv |  | BACTEC | MIC bound |  | >12.5 µg/mL
N#Cc1ccc2c(=O)c3ccccc3oc2c1 | H37Rv |  |  | inhibition | 8 µg/mL | inactive
COc1c(N2CCNC(C)C2)c(F)cc2c(=O)c(C(=O)O)cn(C3CC3)c12 | Strain 328 |  |  | MIC |  | 0.125 µg/mL
COC(=O)c1ccc2oc3c(C(=O)OC)cc([N+](=O)[O-])cc3c(=O)c2c1 | H37Rv |  |  | inhibition | 16 µg/mL | inactive
CCOc1cc(/C=N/N=c2\scc(-c3cc4cc(Br)ccc4oc3=O)n2CC)ccc1O | H37Rv |  |  | EC50 |  | <12.5 µg/mL
N#Cc1cccc2oc3ccccc3c(=O)c12 | H37Rv |  |  | inhibition | 4 µg/mL | inactive
O=c1oc2ccccc2cc1-c1cs/c(=N/N=C/c2ccc(Cl)cc2)n1C1CCCCC1 | H37Rv |  |  | EC50 |  | <12.5 µg/mL
COC(=O)c1ccc2c(=O)c3cc([N+](=O)[O-])ccc3oc2c1C(=O)OC | H37Rv |  |  | inhibition | 16 µg/mL | inactive
NC(=O)NC(=O)c1nc2ccccc2[nH]c1=O | H37Rv |  | BACTEC | inhibition | 12.5 µg/mL | 0%
CCCCCNCCNCc1ccc(OC)cc1OC |  |  |  | MIC |  | 25 µM
CC(=O)O[C@H]1CC(=O)OC(C)(C)[C@@H]2CC(=O)[C@]3(C)[C@H](CC[C@@]4(C)[C@H](c5ccoc5)OC(=O)[C@H]5O[C@]543)[C@@]12C | H37Rv |  | BACTEC | MIC bound |  | >12.5 µg/mL
COc1nc2ccc(Br)cc2cc1C(c1ccccc1)C(O)(CCN1CCOCC1)c1ccc2cc(Br)ccc2c1 | H37Rv |  |  | MIC90 |  | 67.65 µg/mL
COc1ccc(C2C3=CONC3CC3CCCCC32)cc1 | H37Rv |  | BACTEC | inhibition | 12.5 µg/mL | 22%
Cc1cc([N+](=O)[O-])cc2c(=O)c3cc([N+](=O)[O-])ccc3oc12 | H37Rv |  |  | inhibition | 4 µg/mL | inactive
Cc1onc(-c2c(F)cccc2Cl)c1C(=O)N[C@@H]1C(=O)N2[C@@H]1SC(C)(C)[C@@H]2C(=O)O | H37Rv |  | resazurin | inhibition | 6.25 µg/mL | -45%
CCN(C)CCC(O)(c1ccc2ccccc2c1)C(c1ccccc1)c1cc2cc(Br)ccc2nc1OC | H37Rv |  |  | MIC90 |  | 0.03 µg/mL
Cn1nc(C(=O)NN)c(=O)[nH]c1=O | H37Rv |  | BACTEC | inhibition | 12.5 µg/mL | 9%
CC1(C)CC[C@]2(C(=O)O)CC[C@]3(C)C(=CCC4[C@@]5(C)CC[C@H](O)C(C)(C)C5CC[C@]43C)C2C1 | H37Rv |  |  | MIC |  | 25 µg/mL
N[C@@H]1CONC1=O | H37Rv |  |  | Mean MIC |  | 22 µg/mL
CC(=O)O[C@@]1(C)C[C@@H]([C@H](O)CC2CC(=O)NC(=O)C2)C(=O)[C@@H](C)C1 | H37Rv |  | BACTEC | MIC |  | ≥128 µg/mL
C=C1C[C@]23C(=O)C[C@@H]4[C@H](CCCC4(C)C)[C@H]2CC[C@H]1[C@@H]3O | H37Ra |  | resazurin / absorbance | MIC |  | 25–50 µg/mL
O=[N+]([O-])c1ccc(CN2CCC3(CC2)CCN(c2ccc(C(F)(F)F)cc2)CC3)o1 | Clinical Isolate 16833 | INH RFP resistant | resazurin | MIC90 |  | >10 µg/mL
NCC[C@H](O)C(=O)N[C@@H]1C[C@H](N)[C@@H](O[C@H]2O[C@H](CN)[C@@H](O)[C@H](O)[C@H]2O)[C@H](O)[C@H]1O[C@H]1O[C@H](CO)[C@@H](O)[C@H](N)[C@H]1O | H37Rv |  |  | Mean MIC |  | 0.59 µg/mL
O=c1c2[nH]c3ccccc3sc=2c(=O)c2ccccc12 | H37Rv |  | BACTEC | MIC |  | 3.13 µg/mL
CCOC(=O)c1c(C)c(-c2ccccc2)n(CCC(=O)NN)c1C | H37Rv |  | BACTEC | EC50 |  | >6.25 µg/mL
NNC(=O)c1ccncc1 | 18 strains (levofloxacin-resistant) |  |  | MIC90 |  | >100 µg/mL
CN(C)N=Nc1cn([C@@H]2O[C@H](CO)[C@@H](O)[C@H]2O)c(=O)[nH]c1=O | H37Rv |  | BACTEC | MIC bound |  | >6.25 µg/mL
COc1nc2ccc(Br)cc2cc1C(c1ccccc1)C(O)(CCCN1CCOCC1)c1ccc2ccccc2c1 | H37Rv |  |  | MIC90 |  | 61.16 µg/mL
CCOC(=O)c1cc(-c2ccc(Cl)cc2)n(CC(=O)N/N=C/c2ccc([N+](=O)[O-])o2)c1C | H37Rv |  | BACTEC | EC50 |  | <6.25 µg/mL
CC(C)=CCC/C(C)=C/CNCCNCC12CC3CC(CC(C3)C1)C2 |  |  |  | MIC |  | 25 µM
COc1cc2oc3cc(OC)c(OC)c(CC=C(C)C)c3c(=O)c2c(O)c1CC=C(C)C | H37Rv |  | BACTEC | inhibition | 12.5 µg/mL | 17%
CCOC(=O)c1cc(-c2ccc(Cl)cc2)n(CCC(=O)NN)c1C | H37Rv |  | BACTEC | EC50 |  | >6.25 µg/mL
CCOc1ccccc1CNCCNC[C@]1(C)CCC[C@]2(C)c3ccc(C(C)C)cc3CC[C@@H]12 |  |  |  | MIC |  | 25 µM
O=[N+]([O-])c1ccc(CN2CC3CN(c4ccc(OC(F)(F)F)cc4)CC3C2)o1 | Clinical Isolate 16833 | INH RFP resistant | resazurin | MIC90 |  | 6.3 µg/mL
O=C(O)c1ccc2c(=O)c3ccccc3oc2c1 | H37Rv |  |  | inhibition | 16 µg/mL | inactive
CO[C@H]1/C=C/O[C@@]2(C)Oc3c(C)c(O)c4c(O)c(c(/C=N/N5CCN(C)CC5)c(O)c4c3C2=O)NC(=O)/C(C)=C\C=C\[C@H](C)[C@H](O)[C@@H](C)[C@@H](O)[C@@H](C)[C@H](OC(C)=O)[C@@H]1C | HN878 |  | BACTEC | MIC |  | 0.031 µg/mL
N#Cc1ccc(N2CC3CCC2CN3Cc2ccc([N+](=O)[O-])o2)cc1 | H37Rv |  | resazurin | MIC90 |  | <0.016 µg/mL
CC[C@H]1OC(=O)[C@H](C)[C@@H](O[C@H]2C[C@@](C)(OC)[C@@H](O)[C@H](C)O2)[C@H](C)[C@@H](O[C@@H]2O[C@H](C)C[C@H](N(C)C)[C@H]2O)[C@](C)(OC)C[C@@H](C)C(=O)[C@H](C)[C@@H](O)[C@]1(C)O | H37Ra |  |  | Median MIC |  | 1.5 µg/mL

A second listing of 5 rows from above:

SMILES	strain	changes	read by	measure	dose	value
COc1ccc(CNCCNCCc2ccccc2Cl)c(OC)c1				MIC		50 µM
CN(C)N=Nc1cn([C@@H]2O[C@H](CO)[C@@H](O)[C@H]2O)c(=O)[nH]c1=O	H37Rv		BACTEC	MIC bound		>6.25 µg/mL
COC(=O)c1ccc2oc3c(C(=O)OC)cc([N+](=O)[O-])cc3c(=O)c2c1	H37Rv			inhibition	16 µg/mL	inactive
CC(=O)O[C@H]1CC(=O)OC(C)(C)[C@@H]2CC(=O)[C@]3(C)[C@H](CC[C@@]4(C)[C@H](c5ccoc5)OC(=O)[C@H]5O[C@]543)[C@@]12C	H37Rv		BACTEC	MIC bound		>12.5 µg/mL
O=C(O)c1ccc2c(=O)c3ccccc3oc2c1C(=O)O	H37Rv			inhibition	32 µg/mL	inactive